# Share of PSTVd loop 6 variants by leaf site

Data from the supplement of Wu et al. 2024, doi:10.1371/journal.ppat.1012142.

The pool varies loop 6 of the PSTVd intermediate strain in the pattern UNNNCGNNNG; wild type is UGACCGCGAG (upper and lower strand joined, each 5' to 3', the first 5 letters being the upper strand, closing pairs included).

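Three N. benthamiana plants were inoculated with the whole mutant pool. Progeny were sequenced from the inoculated region (day 5), the margin of the inoculated leaf (day 10) and systemic leaves (day 12).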

Numbers give reads per thousand; 0 = not seen among the reads, higher = more abundant. Each site shows the three plants. "Pool" is the share in the plasmid pool used as inoculum, on the same scale. The inoculated region was read from the minus strand, the other sites from the plus strand. IR is the inoculated region, LM the leaf margin, Sys the systemic leaves.

sequence,pool,IR,LM,Sys
UAGGCGCUCG,0.353,0.0695 0.0719 0.0922,0.0276 0 0.0464,0 0 0
UAGGCGCUGG,0.301,0.122 0.162 0.0922,0 0 0,0 0 0
UAGGCGCUUG,0.458,0.0695 0.126 0.0369,0.0552 0 0.0464,0 0 0.0205
UAGGCGGAAG,0.183,0.0695 0.0539 0.0369,0 0 0,0 0 0
UAGGCGGACG,0.209,0.156 0.0898 0.0922,0 0 0,0 0 0
UAGGCGGAGG,0.118,0.0869 0 0.203,0 0 0,0 0 0
UAGGCGGAUG,0.314,0.174 0.0180 0.129,0.0828 0 0,0 0 0
UAGGCGGCAG,0.248,0.156 0.0539 0.0369,0 0 0,0 0 0
UAGGCGGCCG,0.327,0.156 0.0898 0.0553,0.0552 0 0,0 0 0
UAGGCGGCGG,0.248,0.174 0.108 0.0922,0 0 0,0 0 0
UAGGCGGCUG,0.196,0.156 0.0539 0.0738,0 0 0.0464,0 0 0
UAGGCGGGAG,0.157,0.139 0.0539 0.0553,0 0 0.0464,0 0 0
UAGGCGGGCG,0.235,0.0348 0.0539 0.0553,0 0 0.0464,0 0 0
UAGGCGGGGA,0.0131,0 0 0,0 0 0,0 0 0
UAGGCGGGGG,0.248,0.0869 0.0359 0.111,0 0 0,0 0 0
UAGGCGGGUG,0.248,0.0174 0.0359 0.0184,0 0 0.0232,0 0 0
UAGGCGGUAG,0.196,0.0869 0.0898 0.0184,0 0 0,0 0 0
UAGGCGGUCG,0.340,0.0869 0.0180 0.111,0 0 0,0 0 0
UAGGCGGUGG,0.248,0.139 0.108 0.111,0 0 0,0 0 0
UAGGCGGUUG,0.235,0.0695 0.0898 0.0553,0 0 0,0 0 0
UAGGCGUAAG,0.131,0.0521 0.0180 0.0738,0 0 0,0 0 0
UAGGCGUACG,0.353,0.0695 0.126 0.0369,0 0 0.0464,0 0 0.0205
UAGGCGUAGG,0.275,0.156 0.0719 0.0553,0 0 0.0232,0 0 0
UAGGCGUAUG,0.353,0.0869 0.108 0.0922,0.248 0 0,0 0 0
UAGGCGUCAG,0.261,0.0695 0.0539 0.221,0 0 0,0 0 0
UAGGCGUCCG,0.275,0.0869 0.162 0.0738,0 0 0,0 0 0
UAGGCGUCGG,0.275,0.122 0.126 0.0738,0 0 0,0 0.0202 0.0205
UAGGCGUCUG,0.275,0.104 0.0359 0.0738,0 0 0,0 0 0
UAGGCGUCUU,0.0131,0 0 0,0 0 0,0 0 0
UAGGCGUGAG,0.131,0.209 0.0359 0.0922,0 0 0.0232,0 0 0
UAGGCGUGCG,0.183,0.0695 0.0719 0.0553,0 0 0,0 0 0
UAGGCGUGGG,0.222,0.104 0.0359 0.0369,0.0276 0 0.0232,0 0 0
UAGGCGUGUG,0.235,0.122 0.162 0.0369,0 0 0,0 0 0
UAGGCGUUAG,0.405,0.0869 0.108 0.0738,0 0 0,0 0 0
UAGGCGUUCG,0.366,0.0695 0.0719 0.0738,0 0 0,0 0 0.0205
UAGGCGUUGG,0.248,0.191 0.108 0.111,0 0 0.0232,0 0 0
UAGGCGUUUG,0.379,0.0869 0.0359 0.0922,0 0 0.0232,0 0 0
UAGUCGAAAG,0.170,0.0521 0.0539 0.129,0 0 0.0464,0 0 0
UAGUCGAACG,0.183,0.191 0.0539 0.0922,0 0 0.0464,0 0 0
UAGUCGAAGG,0.170,0.104 0.0719 0.0553,0.0276 0 0.0232,0 0 0
UAGUCGAAUG,0.340,0.122 0.180 0.0738,0 0 0,0 0 0
UAGUCGACAG,0.222,0.0695 0.0719 0.0922,0.0276 0 0,0 0 0
UAGUCGACCG,0.196,0.122 0.0359 0.0922,0 0 0.0464,0 0 0
UAGUCGACGG,0.275,0.174 0.108 0.0553,0 0 0.0232,0 0 0
UAGUCGACUG,0.327,0.104 0.0719 0.0738,0.0276 0 0,0 0 0
UAGUCGAGAG,0.261,0.139 0.0359 0.111,0 0 0,0 0 0
UAGUCGAGCG,0.196,0.104 0.0898 0.148,0 0 0.0464,0 0 0
UAGUCGAGGG,0.105,0.0869 0.0539 0.0553,0 0 0,0 0 0
UAGUCGAGUG,0.157,0.122 0.144 0.0369,0.0276 0 0,0 0 0
UAGUCGAUAG,0.222,0.104 0.108 0.0369,0 0 0.116,0 0 0
UAGUCGAUCG,0.209,0.191 0.0539 0.0184,0.0276 0 0.0464,0 0 0
UAGUCGAUGG,0.366,0.104 0.0898 0.0553,0 0 0.0232,0 0 0
UAGUCGAUUG,0.288,0.0695 0.126 0.111,0 0 0.0232,0 0 0
UAGUCGCAAG,0.0915,0.139 0.0719 0.221,0 0 0.0232,0 0 0
UAGUCGCACG,0.131,0.139 0.144 0.0922,0 0 0,0 0 0
UAGUCGCAGG,0.275,0.191 0.0898 0.0369,0 0 0,0 0 0
UAGUCGCAUG,0.144,0.0869 0.108 0.0553,0 0 0.0232,0 0 0
UAGUCGCCAG,0.157,0.139 0.0719 0.0922,0 0 0.0232,0 0 0

7 of these entries, quoted again:

sequence,pool,IR,LM,Sys
UAGGCGUCAG,0.261,0.0695 0.0539 0.221,0 0 0,0 0 0
UAGGCGUUAG,0.405,0.0869 0.108 0.0738,0 0 0,0 0 0
UAGGCGGCGG,0.248,0.174 0.108 0.0922,0 0 0,0 0 0
UAGGCGUCUU,0.0131,0 0 0,0 0 0,0 0 0
UAGUCGAAUG,0.340,0.122 0.180 0.0738,0 0 0,0 0 0
UAGGCGUACG,0.353,0.0695 0.126 0.0369,0 0 0.0464,0 0 0.0205
UAGGCGGCUG,0.196,0.156 0.0539 0.0738,0 0 0.0464,0 0 0

Samples held 36,220 to 57,551 reads, so the smallest values rest on one or two reads. For reference, wild type rose from 20.7 per thousand in the pool to 195, 198, 203 (inoculated region), 629, 591, 734 (leaf margin) and 942, 870, 868 (systemic leaves). The authors trace changes outside the varied positions to PCR and sequencing errors or to mutation in the plant; presence does not show that a variant is infectious alone.